The record followed here is publication PMC6406179 (F1000Research, 2018).

SMILES strings stand for the structures.

This experiment addresses Mannheimia haemolytica leukotoxin (Lkt) (Mannheimia haemolytica, UniProt P16535). Put plainly: MTT dye-reduction cytotoxicity-blocking assay, BL3 cells. The following applies: read-out: IC50 (uM) aa 5-17, Figure 6A, 13-mer peptides of cattle, sheep, water buffalo, eland, 50 μM to 0.195 μM, non-linear regression, n=3 or 4.

As for `CC(C)C[C@H](NC(=O)[C@H](C)NC(=O)[C@H](CC(C)C)NC(=O)[C@H](CC(C)C)NC(=O)CNC(=O)[C@H](C)NC(=O)[C@H](CC(C)C)NC(=O)[C@H](CC(C)C)NC(=O)[C@H](CC(C)C)NC(=O)[C@H](CC(C)C)NC(=O)[C@H](CCC(N)=O)NC(=O)[C@@H]1CCCN1C(=O)[C@@H](N)CS)C(=O)O` [C5], the half-maximal inhibitory concentration (IC50) (in general, the concentration needed to halve the response being measured) came to 1.1 µM.
